PubChem BioAssay AID1259414 | Drosophila RNAi Screening Center | 2018

Assay: 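Host factors increasing or decreasing Wolbachia levels in cultured fly cells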 (primary screen)
Cells: Drosophila JW18 cells infected with Wolbachia
Knock-down reagent: long dsRNA against Drosophila genes, 0.25 µg dsRNA per well of a 384-well plate
Time to read-out: 5 days
Challenge: cells persistently infected with Wolbachia before knock-down; no added drug
Read-out: 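Imaged fluorescence in situ signal for Wolbachia 23S rRNA per DAPI-counted host cell, given as a robust z-score within each plate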
Direction: Wolbachia per cell robust z: higher = more Wolbachia per host cell than the plate typical
Call rule: 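Hit when robust z is 1.5 or more, or -1.5 or less, in at least two of three replicates; excludes dsRNAs with several or no targets, genes not expressed in JW18 and well A1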
The deposit covers about 24,000 reagents; this is an unselected part of those with a known target gene and a result. Over the whole deposit, about 1,210 (5%) are marked active. 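Inactive calls also include excluded dsRNAs with several or no targets, genes unexpressed in JW18, and well A1, regardless of score.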 Unmarked entries are inactive. No sequences are given here.

Wolbachia per cell robust z, rep 1	Wolbachia per cell robust z, rep 2	Wolbachia per cell robust z, rep 3	gene	DRSC id
0.462	-0.16	-0.125	CR43361 (pseudo)	DRSC17206
1.63	1.39	1.07	CR43361 (pseudo)	DRSC23926
0.544	-0.58	1.02	CG4409	DRSC06869
-0.213	-2.02	-2.07	CG4409	DRSC28040
-0.0572	-0.754	0.672	aph-1 (anterior pharynx defective 1)	DRSC00547
1.46	0.964	0.252	nur (nemuri)	DRSC01342
0.337	1.04	-0.524	nur (nemuri)	DRSC29629
-3.97	0.681	-1.14	CG17002	DRSC04978
-0.303	-1.5	-1.47	CG17002	DRSC27573
0.748	0.993	0.732	Polr2M (RNA polymerase II subunit M)	DRSC15513
-0.662	-0.939	-0.0383	Polr2M (RNA polymerase II subunit M)	DRSC25856
0.887	1.07	0.927	Sln (Silnoon)	DRSC07133
-0.46	-0.449	-0.633	Sln (Silnoon)	DRSC24171
-1.53	0.0998	0.166	CG31922	DRSC21703
1.51	1.2	0.902	CG31922	DRSC26533
-0.623	0.383	-0.24	Rad23	DRSC17167
-8	0.889	0.6	dpr7 (defective proboscis extension response 7)	DRSC17109
-2.41	0.315	-0.725	dpr7 (defective proboscis extension response 7)	DRSC26544
-0.304	0.763	0.497	Orai	DRSC22061
1.26	1.42	1.5	Arl6IP1 (ADP-ribosylation factor-like 6 interacting protein 1)	DRSC14231
0.866	-0.465	0.954	CG1271	DRSC08290
-1.26	-0.0582	-0.873	CG8012	DRSC10951
0.444	-0.151	0.171	Mul1 (Mitochondrial E3 ubiquitin protein ligase 1)	DRSC08174
-10.2	0.64	0.227	Mul1 (Mitochondrial E3 ubiquitin protein ligase 1)	DRSC25694
-0.553	0.777	-0.855	CG4116	DRSC18348
0.124	-0.569	0.119	CG4116	DRSC29381
-0.408	0.0446	-0.314	Marc (Mitochondrial amidoxime reducing component)	DRSC06614
1.51	1.04	-0.316	CG4465	DRSC15584
0.148 (active)	-4.42	-3.18	brk (brinker)	DRSC23036
0.375	-0.633	0.639	brk (brinker)	DRSC27320
0.158	-1.51	-0.584	CG32633	DRSC18987
-0.17	0.67	-0.136	y (yellow)	DRSC18853
-1.5	-0.602	-0.311	y (yellow)	DRSC39116
1.46	-7.6	2.04	CG4271	DRSC00649
-0.0276	-0.0336	0.813	Socs36E (Suppressor of cytokine signaling at 36E)	DRSC02455
-0.592	-0.19	-0.109	Socs36E (Suppressor of cytokine signaling at 36E)	DRSC27917
0.395	-0.296	0.322	Cyp4p1 (Cytochrome P450 4p1)	DRSC07372
1.26	0.444	-0.0879	Cyp4p1 (Cytochrome P450 4p1)	DRSC26036
-0.475	-1.64	-1.31	Delta	DRSC16648
1.03	1.89	-0.122	Delta	DRSC24112
-0.0225	-0.198	0.164	CG13991	DRSC02323
1.34	0.264	0.711	SK (small conductance calcium-activated potassium channel)	DRSC17387
0.165	0.119	0.00196	SK (small conductance calcium-activated potassium channel)	DRSC17887
0.602	0.0145	0.272	SK (small conductance calcium-activated potassium channel)	DRSC17888
-0.236	0.399	0.209	SK (small conductance calcium-activated potassium channel)	DRSC18353
0.639	0.492	0.211	SK (small conductance calcium-activated potassium channel)	DRSC27622
0.617	-0.524	-0.308	CG14903	DRSC15024
-0.221	0.676	1.68	CG9525	DRSC03249
0.425	0.436	1.2	MtnB (Metallothionein B)	DRSC22744
-0.305	-0.0445	-2.4	MtnB (Metallothionein B)	DRSC29147
-0.754	0.413	-7.52	Cpr72Eb (Cuticular protein 72Eb)	DRSC09870
-0.215	0.283	0.326	CG12589	DRSC12215
-0.0712	-1.1	-0.308	CG5084	DRSC06913
-1.05	-2.1	-1.5	CG5084	DRSC27650
0.0426	-1.06	0.693	Usp15-31 (Ubiquitin specific protease 15/31)	DRSC04426
-0.394	-0.192	0.0723	Usp15-31 (Ubiquitin specific protease 15/31)	DRSC24986
-2.55 (active)	-2.04	-0.809	aux (auxilin)	DRSC12161
-0.789	-0.967	-1.51	aux (auxilin)	DRSC28178
0.152	-0.0409	-0.00673	mRpL24 (mitochondrial ribosomal protein L24)	DRSC03113
-2 (active)	-0.887	-3.56	CG12003	DRSC08214
0.344	-4.05	1.17	CG13230	DRSC06350
0.52	-0.382	-0.138	CG13230	DRSC26778
0.233	0.639	0.294	boi	DRSC18425
0.598	0.441	1.48	boi	DRSC18598
0.437	-0.476	0.423	boi	DRSC25851
-0.336	0.788	0.563	CG4476	DRSC10424
-0.309	0.0491	0.288	CG4476	DRSC25362
-0.0386	0.748	0.623	CG42691	DRSC40513
0.885	-1.46	-2.12	CG42691	DRSC41459

Records above called active:
Wolbachia per cell robust z, rep 1	Wolbachia per cell robust z, rep 2	Wolbachia per cell robust z, rep 3	gene	DRSC id
0.148 (active)	-4.42	-3.18	brk (brinker)	DRSC23036
-2.55 (active)	-2.04	-0.809	aux (auxilin)	DRSC12161
-2 (active)	-0.887	-3.56	CG12003	DRSC08214
